Anti-infective test results gathered from many reports (values: NIAID ChemDB through PubChem).

Shared fields: whole-cell or culture tests; agent: HIV-1

An empty or dashed field is not shown. Two numbers with a dash give a range or band. Neighbouring rows are from separate reports. ECn: concentration that inhibits the pathogen or its effect by n%.

structure | strain or isolate | endpoint | cells | setting | changes | read by | result
COc1ccc(N(C)C(=O)[C@H](Cc2ccccc2)NC(=O)NC(=O)N[C@@H](Cc2ccccc2)C(=O)N(C)c2ccc(OC)cc2)cc1 | NL4-3 | EC50 | MT-2 |  |  | luciferase | 4.71 µM
Cc1[nH]c(=S)n(Nc2cccc(Cl)c2)c1C | IIIB | EC50 | MT-4 |  |  | cytopathic effect / MTT | >259 µM
CN(C)C(=O)C(=O)N(C)CC1c2nc(C(=O)NCc3ccc(F)cc3)c(O)c(=O)n2CCN1C |  | EC95 | MT-4 |  |  | p24 | 1–10 µM
COc1ccc(/C=C/c2cc(Cl)c3cc(Cl)ccc3n2)cc1 | UG070 | EC50 | TZM-bl |  |  | luminescence | 109 µM
Cc1ncc(-c2ccc(OCCOc3ccccc3)nc2)c(N2CCC(C)(C)CC2)c1[C@H](OC(C)(C)C)C(=O)O | NL4-3 | EC50 | MT-2 |  |  | luminescence | 0.0017 µM
CCc1cccc2c(C(=O)C(=O)N3CCN(C(=O)c4ccccc4)C[C@H]3C)c[nH]c12 |  | EC50 | HeLa + HELA CD4+/CCR5 |  |  | luciferase | <10 µM
CCN(CC)CCN1CCn2c(nc(C(=O)NCc3ccc(F)cc3)c(O)c2=O)C1(C)C |  | EC50 | MT-4 |  |  | p24 | <1 µM
CC(C)C1=C2[C@H]3CC[C@@H]4[C@@]5(C)CC[C@H](OC(=O)[C@H]6CCC[C@@H](C(=O)O)C6)C(C)(C)[C@@H]5CC[C@@]4(C)[C@]3(C)CC[C@@]2(NC(=O)OC(C)(C)C)CC1=O | IIIB | EC50 | MT-2 | 30% human serum |  | RT activity | <0.199 µM
Cc1cc(C(=O)N2CCN(C(=O)C(=O)c3c[nH]c4c(F)ccc(F)c34)CC2)oc1C |  | EC50 | HeLa + HELA CD4+/CCR5 |  |  | luciferase | <10 µM
Cc1cc(N(C)C(=O)[C@H](Cc2ccccc2)NC(=O)NS(=O)(=O)N[C@@H](Cc2ccccc2)C(=O)N(C)c2ccc(F)c(C)c2)ccc1F | NL4-3 | EC50 | MT-2 |  |  | luciferase | 2.64 µM
Cc1nnc(C(=O)N(C)C2CN(C)CCn3c2nc(C(=O)NCc2ccc(F)cc2)c(O)c3=O)o1 |  | EC95 | MT-4 |  |  | p24 | <1 µM
CCc1ncn(Nc2cccc(C)c2)c1-c1ccccc1 | IIIB | EC50 | MT-4 |  |  | cytopathic effect / MTT | >27.87 µM
CC(C)C1=C2[C@H]3CC[C@@H]4[C@@]5(C)CC[C@H](OC(=O)CC(C)(C)C(=O)O)C(C)(C)[C@@H]5CC[C@@]4(C)[C@]3(C)CC[C@@]2(NC(=O)CN2CCCC2)CC1=O | IIIB | EC50 | MT-2 | 30% human serum |  | RT activity | <0.199 µM
CCN1c2ncc(CCOc3ccc(-c4ccc(C(=O)O)cc4)cc3F)cc2C(=O)N(C)c2cccnc21 | IIIB | EC50 | C8166 |  |  | p24 | <0.01 µM
CCN1c2ncc(CCOc3ccc(C(=O)O)c4c3CCN(C(=O)OC(C)(C)C)C4)cc2C(=O)N(C)c2cccnc21 |  | EC50 | C8166 |  | RT-K103N Y181C | p24 | <0.1 µM
CN(C(=O)[C@H](Cc1cc(F)cc(F)c1)NC(=O)NS(=O)(=O)N[C@@H](Cc1cc(F)cc(F)c1)C(=O)N(C)c1ccc2c(c1)OCCO2)c1ccc2c(c1)OCCO2 | NL4-3 | EC50 | MT-2 |  |  | luciferase | 0.07 µM
COc1ccc(C(=O)N2CCN(C(=O)C(=O)c3c[nH]c4cccc(F)c34)CC2)c(S)c1 |  | EC50 | HeLa + HELA CD4+/CCR5 |  |  | luciferase | <10 µM
CCN1c2ncc(CCOc3ccc(NS(=O)(=O)C(F)(F)F)c4ccccc34)cc2C(=O)N(C)c2ccc(F)nc21 |  | EC50 | C8166 |  | RT-V106A | p24 | 0.1–1 µM
O=C(C(=O)N1CCN(C(=O)c2cccc(Br)c2S)CC1)c1c[nH]c2cccc(F)c12 |  | EC50 | HeLa + HELA CD4+/CCR5 |  |  | luciferase | <10 µM
Cc1ccnc2c1NC(=O)c1cccnc1N2C1CC1 | A17 | EC50 | TZM-bl |  | K103N | p24 / ELISA | >10 µM
COc1ccc(/C=C/c2cc(Cl)c3ccccc3n2)cc1 | VB59 | EC50 | TZM-bl |  |  | luminescence | 7.13 µM
COc1ccc(N(C)C(=O)[C@H](Cc2ccccc2)NC(=O)/C=C/CC(=O)N[C@@H](Cc2ccccc2)C(=O)N(C)c2ccc(OC)cc2)cc1 | NL4-3 | EC50 | MT-2 |  |  | luciferase | 0.64 µM
Cc1ncc(-c2ccc(NCCOc3ccc(F)cc3Cl)nc2)c(N2CCC(C)(C)CC2)c1[C@H](OC(C)(C)C)C(=O)O | NL4-3 | EC50 | MT-2 |  |  | luminescence | 0.004 µM
CCN1c2ncc(CCOc3ccc(CC(=O)NN)c4ccccc34)cc2C(=O)N(C)c2cccnc21 | WT | EC50 | C8166 |  |  | p24 | <0.1 µM
CCN1c2ncc(CCOc3ccc(-c4cc[n+]([O-])cc4)cc3)cc2C(=O)N(C)c2cccnc21 |  | EC50 | C8166 |  | RT-K103N Y181C | p24 | <0.01 µM
Cc1cc(OCCN(C)c2ccc(-c3cnc(C)c([C@H](OC(C)(C)C)C(=O)O)c3N3CCC(C)(C)CC3)cn2)ccc1F | NL4-3 | EC50 | MT-2 |  |  | luminescence | 0.0032 µM
C[C@H]1CN(C(=O)c2ccccc2)CCN1C(=O)C(=O)c1c[nH]c2c(F)cccc12 |  | EC50 | HeLa + HELA CD4+/CCR5 |  |  | luciferase | <10 µM
CCN1c2ncc(CCOc3ccc(-c4ccc(C(=O)O)c[n+]4[O-])cc3C)cc2C(=O)N(C)c2cccnc21 |  | EC50 | C8166 |  | RT-K103N Y181C | p24 | 0.01–0.05 µM
COc1ccc(N(C)C(=O)[C@H](Cc2ccccc2)NC(=O)Cn2c(=O)n(CC(=O)N[C@@H](Cc3ccccc3)C(=O)N(C)c3ccc(OC)cc3)c3c(Cl)cccc32)cc1 | NL4-3 | EC50 | MT-2 |  |  | luciferase | 0.07 µM
Clc1cc(/C=C/c2ccc3c(c2)OCO3)nc2ccccc12 | UG070 | EC50 | TZM-bl |  |  | luminescence | 72.32 µM
CN1CCn2c(nc(C(=O)NCc3ccc(F)cc3)c(O)c2=O)C(N(C)C(=O)C(=O)N2CCOCC2)C1 |  | EC95 | MT-4 |  |  | p24 | <1 µM
CC(C)C1=C2C3CCC4[C@@]5(C)CC[C@H](OC(=O)CC(C)(C)C(=O)O)C(C)(C)C5CC[C@@]4(C)[C@]3(C)CC[C@@]2(NC(=O)OC2CCNCC2)CC1=O | IIIB | EC50 | MT-2 | 30% human serum |  | RT activity | <0.199 µM
CC(C)=CCOc1cc(NC(=S)c2ccoc2C)ccc1Cl | NL4-3 | EC50 | CEM + CEM-SS |  | RT-V108I | p24 | 0.01 µM
Cc1ncc(-c2ccc(OCCOc3ccc(F)cc3Cl)cn2)c(N2CCC(C)(C)CC2)c1[C@H](OC(C)(C)C)C(=O)O | NL4-3 | EC50 | MT-2 |  |  | luminescence | 0.0009 µM
CCCc1cc(=O)oc2c3c(c4c(c12)OC(C)(C)CC4)O[C@H](C)[C@@H](C)C3=O | 4xAZT resistant isolate | EC50 |  |  | RT-D67N K70R T215Y K219Q | cytopathic effect / XTT | 2.73 µM
Cc1cccc(Nn2cnc(C)c2-c2ccccc2)c1 | IIIB | EC50 | MT-4 |  |  | cytopathic effect / MTT | 3.26 µM
CCC(=O)c1ccc(F)c([C@@H]2C[C@@H]2NC(=O)Nc2ccc(C#N)cn2)c1O | LAI | EC50 | TZM-bl |  | NNRTI-resistant (RT Y181C) | β-galactosidase / luminescence | 0.0102 µM
COc1ccc(/C=C/c2cc(Cl)c3ccccc3n2)c(OC)c1 | VB51 | EC50 | PBMC |  |  | p24 / ELISA | 7.34 µM
Cc1ncc(-c2ccc(OC3CCC3)cn2)c(N2CCC(C)(C)CC2)c1[C@H](OC(C)(C)C)C(=O)O | NL4-3 | EC50 | MT-2 |  |  | luminescence | 0.0032 µM
CCN1c2ncc(CCOc3ccc(CCC(=O)O)c4c3CCCC4)cc2C(=O)N(C)c2cccnc21 |  | EC50 | C8166 |  | RT-K103N Y181C | p24 | <0.1 µM
COc1ccc(N(C)C(=O)C(Cc2ccccc2)NS(=O)(=O)CS(=O)(=O)N[C@@H](Cc2ccccc2)C(=O)N(C)c2ccc(OC)cc2)cc1 | NL4-3 | EC50 | MT-2 |  |  | luciferase | 1.24 µM
CCC[C@@]1(CCc2ccccc2)CC(O)=C([C@H](CC)c2cccc(NS(=O)(=O)c3ccc(C(F)(F)F)cn3)c2)C(=O)O1 | T13632 | EC50 | MT-4 |  | V32I I50V L76V V82I | reporter gene | 92 nM
CC(C)C1=C2C3CCC4[C@@]5(C)CC[C@H](OC(=O)CC(C)(C)C(=O)O)C(C)(C)C5CC[C@@]4(C)[C@]3(C)CC[C@@]2(NC(=O)N2CC[C@@H](NC(=O)OC(C)(C)C)C2)CC1=O | IIIB | EC50 | MT-2 | 30% human serum |  | RT activity | <0.199 µM
Cc1[nH]c(=S)n(Nc2cccc([N+](=O)[O-])c2)c1-c1ccccc1 | IIIB | EC50 | MT-4 |  |  | cytopathic effect / MTT | 7.29 µM
CN1CCn2c(nc(C(=O)NCc3ccc(F)cc3)c(O)c2=O)C(N(Cc2ccccc2)C(=O)C(=O)N(C)C)C1 |  | EC95 | MT-4 |  |  | p24 | <1 µM
CC1(C)CC=C(c2cn(-c3nccc(C(=O)NC4CCC(N5CC6CCC(C5)O6)CC4)n3)c3ccc(F)c([C@H](OC(C)(C)C)C(=O)O)c23)CC1 | NL4-3 | EC50 | MT-4 |  | T66I | luminescence | 0.0051 µM
O=C1Nc2ccc(Cl)cc2[C@@](C#CC2CC2)(C(F)(F)F)N1 |  | EC90 |  |  | RT-Y188C |  | <0.012 µM
C[C@@H]1CN(C(=O)c2ccccn2)CCN1C(=O)C(=O)c1c[nH]c2c(C#N)cccc12 |  | EC50 | HeLa + HELA CD4+/CCR5 |  |  | luciferase | <10 µM
COc1ccc(-n2ccnc2[C@H](Cc2ccccc2)NC(=O)NS(=O)(=O)N[C@@H](Cc2ccccc2)c2nccn2-c2ccc(OC)cc2)cc1 | NL4-3 | EC50 | MT-2 |  |  | luciferase | 3.68 µM
Cc1cc(C(=O)N[C@@]23CC[C@]4(C)[C@H](CC[C@@H]5[C@@]6(C)CC[C@H](OC(=O)CC(C)(C)C(=O)O)C(C)(C)[C@@H]6CC[C@]54C)C2=C(C(C)C)C(=O)C3)cc(C)n1 | IIIB | EC50 | MT-2 | 30% human serum |  | RT activity | <0.199 µM
C[C@H]1CN(C(=O)c2ccccc2)CCN1C(=O)C(=O)c1c[nH]c2cc(Cl)c(Cl)cc12 |  | EC50 | HeLa + HELA CD4+/CCR5 |  |  | luciferase | <10 µM
Cc1ncc(-c2ccc(OC[C@H](C)Oc3ccccc3)nc2)c(N2CCC(C)(C)CC2)c1[C@H](OC(C)(C)C)C(=O)O | NL4-3 | EC50 | MT-2 |  |  | luminescence | 0.0023 µM
CC(C)C1=C2[C@H]3CC[C@@H]4[C@@]5(C)CC[C@H](OC(=O)CC(C)(C)C(=O)O)C(C)(C)[C@@H]5CC[C@@]4(C)[C@]3(C)CC[C@@]2(NC(=O)NC[C@@H]2CCCN2)CC1=O | IIIB | EC50 | MT-2 | 30% human serum |  | RT activity | <0.199 µM
Cc1nc2ccccc2c(-c2cc(F)c3c(c2C)CCCO3)c1[C@H](OC(C)(C)C)C(=O)O | NL4-3 | EC50 | MT-4 |  | E92Q/N155H | luminescence | 0.016 µM
CC(C)C1=C2[C@H]3CC[C@@H]4[C@@]5(C)CC[C@H](OC(=O)CC(C)(C)C(=O)O)C(C)(C)[C@@H]5CC[C@@]4(C)[C@]3(C)CC[C@@]2(NC(=O)N2CCN(C(=O)OC(C)(C)C)CC2)CC1=O | IIIB | EC50 | MT-2 | 30% human serum |  | RT activity | <0.199 µM
O=C1Nc2ccc(F)c(F)c2[C@@](C#CC2CC2)(C(F)(F)F)N1 |  | EC90 |  |  | RT-K103N V108I |  | ~0.02 µM
Cn1cc(CN2CCn3c(nc(C(=O)NCc4ccc(F)cc4)c(O)c3=O)C2(C)C)nn1 |  | EC95 | MT-4 |  |  | p24 | <1 µM
COc1ccc(N(C)C(=O)[C@H](Cc2cc(F)cc(F)c2)NC(=O)c2cc(F)c(F)cc2C(=O)N[C@@H](Cc2cc(F)cc(F)c2)C(=O)N(C)c2ccc(OC)cc2)cc1 | NL4-3 | EC50 | MT-2 |  |  | luciferase | 0.09 µM

For reference, 8 entries again:

| structure | strain or isolate | endpoint | cells | setting | changes | read by | result |
|---|---|---|---|---|---|---|---|
| COc1ccc(/C=C/c2cc(Cl)c3ccccc3n2)cc1 | VB59 | EC50 | TZM-bl |  |  | luminescence | 7.13 µM |
| COc1ccc(N(C)C(=O)[C@H](Cc2ccccc2)NC(=O)Cn2c(=O)n(CC(=O)N[C@@H](Cc3ccccc3)C(=O)N(C)c3ccc(OC)cc3)c3c(Cl)cccc32)cc1 | NL4-3 | EC50 | MT-2 |  |  | luciferase | 0.07 µM |
| CN(C)C(=O)C(=O)N(C)CC1c2nc(C(=O)NCc3ccc(F)cc3)c(O)c(=O)n2CCN1C |  | EC95 | MT-4 |  |  | p24 | 1–10 µM |
| Cc1ncc(-c2ccc(OC[C@H](C)Oc3ccccc3)nc2)c(N2CCC(C)(C)CC2)c1[C@H](OC(C)(C)C)C(=O)O | NL4-3 | EC50 | MT-2 |  |  | luminescence | 0.0023 µM |
| Clc1cc(/C=C/c2ccc3c(c2)OCO3)nc2ccccc12 | UG070 | EC50 | TZM-bl |  |  | luminescence | 72.32 µM |
| O=C1Nc2ccc(Cl)cc2[C@@](C#CC2CC2)(C(F)(F)F)N1 |  | EC90 |  |  | RT-Y188C |  | <0.012 µM |
| Cc1cccc(Nn2cnc(C)c2-c2ccccc2)c1 | IIIB | EC50 | MT-4 |  |  | cytopathic effect / MTT | 3.26 µM |
| COc1ccc(N(C)C(=O)[C@H](Cc2ccccc2)NC(=O)/C=C/CC(=O)N[C@@H](Cc2ccccc2)C(=O)N(C)c2ccc(OC)cc2)cc1 | NL4-3 | EC50 | MT-2 |  |  | luciferase | 0.64 µM |